Source: PubChem BioAssay AID720554 (ICCB-Longwood Screening Facility, Harvard Medical School, 2013)
Only a part is listed here, and it is no random draw. The source made the active and inactive calls. Cut-off read from the data, not from the text of the source: active = inhibition mostly above about 83% (no sharp cut-off); inactive = mostly below about 52%.

The compounds below were run on acyl-homoserine lactone synthase BmaI1 (Burkholderia mallei ATCC 23344) (assay: BmaI1 acyl-homoserine lactone synthase inhibition – biochemical, fluorescence intensity, with counterscreen (AID 720554)). Conditions: BmaI1 enzyme assay, active compounds read high, concentration not given here.
With Cc1ccc(C(=O)NCC2(N(C)C)CCCCC2)o1 the inhibition was inactive: 6%.
With Cc1cnc(C(=O)NCC2(N3CCCCC3)CCCCC2)cn1 the inhibition was inactive: 6.5%.
In the case of O=C(NCC1(N2CCOCC2)CCCCC1)c1ccc2nc[nH]c2c1, the inhibition is reported as inactive: 10%.
CN(C)c1ccc(C(=O)NCC2(N3CCCCC3)CCCCC2)cc1 was tested, and the inhibition was inactive: 11%.
In the case of O=C(NCC1(N2CCOCC2)CCCCC1)c1cc2ccccc2cc1O, the inhibition is reported as inactive: 29%.
